Measured values as given in patent US5677432A, “Immunological detection of organophosphates” (dated 1997).

Tested on: cholinesterase
Assay: Inhibition of cholinesterase activity, pesticide biosensor detector kit (Enzytec)

Row | SMILES | concentration showing inhibition of cholinesterase
1 | CCOP(=S)(OCC)Oc1ccc([N+](=O)[O-])cc1 | > 2 ppm
2 | COP(=S)(OC)SCn1nnc2ccccc2c1=O | greater than 0.3 ppm
